Source: the supplement of paper PMC3578754

Key:
Assay in all cases: fold change of IC50 against reference virus; higher = more resistant; Cell-culture drug susceptibility tests of virus bearing the protease of each isolate, gathered from many studies.
[1] = compound: CC(C)(C)NC(=O)[C@@H]1CN(Cc2cccnc2)CCN1C[C@@H](O)C[C@@H](Cc1ccccc1)C(=O)N[C@H]1c2ccccc2C[C@H]1O [indinavir]
[2] = compound: CC(C)(C)NC(=O)[C@@H]1C[C@@H]2CCCC[C@@H]2CN1C[C@@H](O)[C@H](Cc1ccccc1)NC(=O)[C@H](CC(N)=O)NC(=O)c1ccc2ccccc2n1 [saquinavir]
[3] = compound: CC(C)c1nc(CN(C)C(=O)N[C@H](C(=O)N[C@@H](Cc2ccccc2)C[C@H](O)[C@H](Cc2ccccc2)NC(=O)OCc2cncs2)C(C)C)cs1 [ritonavir]
[4] = compound: Cc1c(O)cccc1C(=O)N[C@@H](CSc1ccccc1)[C@H](O)CN1C[C@H]2CCCC[C@H]2C[C@H]1C(=O)NC(C)(C)C [nelfinavir]

Row | Test System | fold change of IC50 against reference virus [1] | fold change of IC50 against reference virus [2] | fold change of IC50 against reference virus [3] | fold change of IC50 against reference virus [4]
1 | HIV-1 isolate 297 (protease changes: E35D N37E I62V L63P I64V A71T L90M, study 57) | 5 | 4 | 3 | 2
2 | HIV-1 isolate 299 (protease changes: L10I G48V I54V V77I V82A I84V, study 112) | 12 | 592 | 75.5 | 10.2
3 | HIV-1 isolate 304 (protease changes: I62V L63P Q92E, study 127) | 0.7 | 0.6 | 0.9 | 1.1
4 | HIV-1 isolate 312 (protease changes: T12K L19V E35D M36I N37D M46I L63P A71T V82I N88D L90M I93L, study 120) | 2.7 | 4.9 | 12.6 | 7.8
5 | HIV-1 isolate 313 (protease changes: L10I I13V K20I E35D M36I N37D I54V Q58E L63P I66F A71V V82T, study 119) | 22.9 | 6.5 | 49.5 | 30.8
6 | HIV-1 isolate 346 (protease changes: L10V G16E L63A V77I, study 38) | 1 | 1 | 1 | 1
7 | HIV-1 isolate 355 (protease changes: L10F D30N I54L L63P A71V V77I N88D L90M, study 66) | 3.9 | 38.1 | 5.7 | 171
8 | HIV-1 isolate 366 (protease changes: L10I M36I R41K I64V I93L, study 127) | 0.7 | 1 | 0.9 | 1.3
9 | HIV-1 isolate 422 (protease changes: I13V L63P, study 112) | 1 | 1.1 | 1.8 | 2.2
10 | HIV-1 isolate 427 (protease changes: L10I E35D R41K I62V L63P V77I I93L, study 54) | 0.9 | 0.6 | 0.9 | 1.8
11 | HIV-1 isolate 452 (protease changes: L10V I13V K14R L19P K20I E35D M36I R41K H69K K70R L89M, study 114) | 0.7 | 0.6 | 0.7 | 0.8
12 | HIV-1 isolate 465 (protease changes: L10I I15V L24I E35D M46L I54V Q58E L63P A71V V82A Q92K, study 119) | 50.7 | 12.3 | 128 | 65.8
13 | HIV-1 isolate 473 (protease changes: T12S I15V L19I M36I R41K Q61N H69K L89M I93L, study 139) | 0.4 | 0.6 | 1 | 0.2
14 | HIV-1 isolate 484 (protease changes: L10T R41K G48V D60N L63P T74S V77I V82A, study 57) | 5 | 7 | 5 | 5
15 | HIV-1 isolate 499 (protease changes: I13V K20I M36I R41K H69K L89M, study 114) | 0.5 | 0.6 | 0.5 | 0.5
16 | HIV-1 isolate 502 (protease changes: M36I I54V V82A, study 38) | 4 | 1 | 9 | 10
17 | HIV-1 isolate 528 (protease changes: L10F M46L R57K L63P A71V G73S I84V L90M, study 127) | 10.5 | 18 | 12 | 18.4
18 | HIV-1 isolate 529 (protease changes: M46I A71V, study 110) | 4.4 | 0.8 | 5.9 | 3.4
19 | HIV-1 isolate 541 (protease changes: L10I I64V V77I N88S, study 107) | 2.5 | 2.4 | 0.6 | 14.6
20 | HIV-1 isolate 561 (protease changes: R41K M46I L63P H69Q, study 57) | 2 | 3 | 2 | 5
21 | HIV-1 isolate 564 (protease changes: T12S K14R I15V L19I M36I R41K L63S H69K T74S L89M I93L, study 114) | 0.6 | 0.6 | 0.7 | 0.6
22 | HIV-1 isolate 570 (protease changes: T12S I15V L19I M36I R41K H69K I93L, study 139) | 1 | 1 | 1 | 1

Row | Test System | fold change of IC50 against reference virus [1] | fold change of IC50 against reference virus [2] | fold change of IC50 against reference virus [3] | fold change of IC50 against reference virus [4]
23 | HIV-1 isolate 573 (protease changes: L10I G17E N37D K43T G48V I54V L63P C67S A71V V77I V82A I84V I93L, study 112) | 12 | 574 | 62.2 | 11
24 | HIV-1 isolate 611 (protease changes: D30N R57G N88D, study 110) | 0.5 | 0.5 | 0.4 | 7.1
25 | HIV-1 isolate 638 (protease changes: D30N M36I I54V L63P A71V N88D L90M, study 66) | 5.8 | 24 | 17 | 219
26 | HIV-1 isolate 642 (protease changes: G48V I72V T74S V82A, study 57) | 9 | 6 | 14 | 11
27 | HIV-1 isolate 678 (protease changes: D30N M36I I54V L63P A71V N88D L90M, study 66) | 12 | 46 | 27 | 140
28 | HIV-1 isolate 680 (protease changes: L63P I64M K70R, study 54) | 0.5 | 0.4 | 0.6 | 0.5
29 | HIV-1 isolate 695 (protease changes: L10I I15V K20M E35D M36I I54V R57K I62V L63P A71V G73S V82A L90M, study 112) | 48.9 | 42.1 | 122 | 80.7
30 | HIV-1 isolate 705 (protease changes: L10I L24I K43T M46I I54V K55R L63P I64V V82A, study 119) | 35.9 | 3.6 | 127 | 34.3
31 | HIV-1 isolate 708 (protease changes: G48V R57G L90M, study 110) | 3.7 | 12.9 | 4.4 | 3
32 | HIV-1 isolate 714 (protease changes: M36I N37D L63P A71V I84V N88D L90M, study 57) | 1 | 3 | 1 | 1
33 | HIV-1 isolate 715 (protease changes: D30N M46I R57G L63P N88D, study 110) | 1.2 | 0.9 | 1 | 24.7
34 | HIV-1 isolate 739 (protease changes: E35D L63P I64V V77I I93L, study 54) | 0.5 | 0.3 | 0.5 | 1.4
35 | HIV-1 isolate 753 (protease changes: M36I L63P H69Q, study 54) | 0.9 | 0.5 | 1.1 | 0.9
36 | HIV-1 isolate 775 (protease changes: L10I T12A K14R D60E L63C I64V A71V L90M I93L, study 57) | 1 | 3 | 1 | 2
37 | HIV-1 isolate 781 (protease changes: D30N L33F L63P A71T N88D L90M, study 66) | 3.5 | 5.2 | 3.3 | 74
38 | HIV-1 isolate 791 (protease changes: N88D, study 61) | 0.1 | 1 | 0.2 | 0.6
39 | HIV-1 isolate 793 (protease changes: N37C I54V I62V L63P V82A I93L, study 120) | 4.8 | 0.9 | 5.8 | 3.5
40 | HIV-1 isolate 809 (protease changes: K14R I15V R41K L63I V77I, study 57) | 1 | 2 | 1 | 1
41 | HIV-1 isolate 828 (protease changes: T12P K14R L24I M46I I54V L63A I64V V82A, study 119) | 6.5 | 1 | 49.8 | 8.9
42 | HIV-1 isolate 829 (protease changes: L10I I13V I64V, study 54) | 0.9 | 0.6 | 0.8 | 1
43 | HIV-1 isolate 841 (protease changes: D30N N88D, study 61) | 0.1 | 0.3 | 0.2 | 6

Fold change is the IC50 on the isolate divided by the IC50 on a reference virus; 1 = unchanged, higher = more resistant. Changes are given against the subtype B consensus. No active / inactive call. The values were gathered from many studies (numbered anew) with different assays, which the source does not name. Most viruses are clinical isolates; some are laboratory strains or clones with known resistance changes. Isolates with mixed residues are left out; stretches that were not sequenced show no change. Round top values that many isolates share are read here as limits; other very high values and 0.1 may be limits too. The protease changes I3V and N37S, insertions and deletions cannot be read from the source.
